Compound potency records, mixed from different reports. Data source: NIAID ChemDB in PubChem.

Shared fields: growth or infection tests; species: Candida tropicalis

A number after MIC or MFC names an inhibition level or a share of isolates. a–b is a range or a potency band. ECn is the concentration giving n% inhibition of infection, replication or growth. Zone: diameter of growth inhibition. Inhibition is in % at the dose shown (toxicity tests: loss of growth or viability). Neighbouring rows are from separate reports. Blank or dashed fields: not listed here.

structure | strain | read by | setting | measure | tested at | value
C1=C(c2ccc3ccccc3c2)C2CCN1CC2 | ATCC 13803 | broth dilution | - | EC50 | - | >16 µg/mL
C=C(c1ccccc1OCc1cccc(Cl)c1)n1ccnc1 | 19 isolates | - | - | MIC90 | - | 8 µg/mL
Oc1ccc(C2Oc3ccc(/C=C/c4cc(O)cc5c4C(c4cc(O)cc(O)c4)C(c4ccc(O)cc4)O5)cc3C2c2cc(O)cc3c2C(c2cc(O)cc(O)c2)C(c2ccc(O)cc2)O3)cc1 | ATCC MYA-3404/T1 | broth dilution | - | MIC95 | - | >300 µg/mL
Oc1cc(Cl)cc2cccnc12 | ATCC 750 | - | 24 h | MIC | - | 6.2 µg/mL
C[C@H]1[C@H](O)[C@@H](C)/C=C/C=C/C=C/C=C/C=C/C=C/C=C/[C@H](O[C@@H]2O[C@H](C)[C@@H](O)[C@H](N)[C@@H]2O)C[C@@H]2O[C@](O)(C[C@@H](O)C[C@@H](O)CC[C@H](O)[C@@H](O)C[C@@H](O)CC(=O)O[C@H]1C)C[C@H](O)[C@H]2C(=O)O | 156 | broth dilution | - | inhibition | 0.54 µM | 80%
C[C@@H]1[C@H](O)[C@@H](C)/C=C/C=C/C=C/C=C/C=C/C=C/C=C/[C@H](O[C@@H]2O[C@H](C)[C@@H](O)[C@H](N)[C@@H]2O)C[C@@H]2O[C@](O)(C[C@@H](O)C[C@@H](O)[C@H](O)CC[C@@H](O)C[C@@H](O)CC(=O)O[C@H]1C)C[C@H](O)[C@H]2C(=O)O | ATCC 13803 | broth dilution | - | MIC100 | - | >1024 µg/mL
C[C@@H](c1ncncc1F)[C@](O)(Cn1cncn1)c1ccc(F)cc1F | 54 isolates | - | - | MIC50 | - | 0.06 µg/mL
c1ccc([Se][Se]c2ccccc2)cc1 | - | broth dilution | - | MFC | - | >64 µg/mL
CCCCCCCCCCCCCCCCCCCO | ATCC 750 | broth dilution | - | MIC | - | 100 µg/mL
O=[N+]([O-])c1cc(CSc2nnnn2C2CCCCC2)cc([N+](=O)[O-])c1 | 156 | broth dilution | 24 h | EC80 | - | >500 µM
CN(C/C=C/C#CC(C)(C)C)Cc1cccc2ccccc12 | 17 clinical isolates | broth dilution | - | MIC50 | - | 8 µg/mL
C[C@@H]1O[C@@H](Oc2c(-c3ccc(O)c(O)c3)oc3cc(O)cc(O)c3c2=O)[C@H](O)[C@H](O)[C@H]1O | ATCC 750 | broth dilution | - | MIC | - | 100 µg/mL
C=CCc1ccc(OC)cc1 | - | - | - | MIC90 | - | 0.016–0.025 µg/mL
O[C@](Cn1cncn1)(Cn1cnc(/C=C/c2ccc(OCC(F)(F)C(F)F)cc2)n1)c1ccc(F)cc1F | 10 strains | - | - | Mean MIC80 | - | 0.06 µg/mL
Clc1ccc(COC(Cn2ccnc2)c2ccc(Cl)cc2Cl)c(Cl)c1 | LM 759 | broth dilution | - | MIC100 | - | 32 µg/mL
C[C@H](Cc1ccc(O)c(O)c1)[C@@H](C)Cc1ccc(O)c(O)c1 | CCC 131-1997 | broth dilution | - | MIC80 | - | 250 µg/mL
Clc1ccc(C(Cn2ccnc2)OCc2c(Cl)cccc2Cl)c(Cl)c1 | 19 isolates | - | - | MIC90 | - | 2 µg/mL
O=C(OC1Cc2c(O)cc(O)cc2OC1c1cc(O)c(O)c(O)c1)c1cc(O)c(O)c(O)c1 | Clinical isolate 3 | broth dilution | - | MIC50 | - | >128 µg/mL
Oc1c(Cl)cc(Cl)c2cccnc12 | ATCC 750 | - | 48 h | MIC | - | 6.2 µg/mL
COc1cc(O)c2c(c1)C(=O)c1c(cc3c(c1O)-c1c(cc(C)c(C(=O)NC(CO)C(=O)O)c1O)[C@H](OC1OC(C)C(O)C(OC4OCC(O)C(O)C4O)C1O)C3O)C2=O | Kitasato 85-8 | - | - | MIC | - | 12.5 µg/mL
C[C@H]1[C@H](O)[C@@H](C)/C=C/C=C/C=C/C=C/C=C/C=C/C=C/[C@H](O[C@@H]2O[C@H](C)[C@@H](O)[C@H](N)[C@@H]2O)C[C@@H]2O[C@](O)(C[C@@H](O)C[C@@H](O)CC[C@H](O)[C@@H](O)C[C@@H](O)CC(=O)O[C@H]1C)C[C@H](O)[C@H]2C(=O)O | - | agar diffusion / agar | - | zone | 10 µg/mL | 22 mm
OC1(c2ccc(-c3ccccc3)cc2)CN2CCC1CC2 | ATCC 13803 | broth dilution | - | EC50 | - | >16 µg/mL
Clc1ccc(C(Cn2ccnc2)OCc2csc3c(Cl)cccc23)c(Cl)c1 | 27 strains | - | - | MIC | - | 1.49 µg/mL
CC1(C)C=C2C3CCC4[C@@]5(C)CCC(O)C(C)(C)C5CC[C@@]4(C)[C@]3(C)CC[C@@]2(C(=O)O)CC1 | ATCC 750 | broth dilution | - | MIC | - | >200 µg/mL
CC(C)CCCc1ccc2c(c1)C(=O)C(Cl)=C(Cl)C2=O | ATCC 200956 | absorbance | - | MIC90 | - | >11.3 µg/mL
C1=C(c2ccc(OCc3ccccc3)cc2)C2CCN1CC2 | ATCC 13803 | broth dilution | - | EC50 | - | 0.5 µg/mL
C[C@@H](c1ncncc1F)[C@](O)(Cn1cncn1)c1ccc(F)cc1F | 17 clinical isolates | broth dilution | - | MIC90 | - | 0.062 µg/mL
O=Cc1cccc(O)c1O | PYCC 3097 | broth dilution / turbidity | - | EC50 | - | 0.06 µM
O=c1cc(-c2ccccc2)oc2cc(O)c(O)c(O)c12 | 186.06 | - | - | MIC | - | 104 µg/mL
O=[N+]([O-])c1cc(CSc2cccc[n+]2[O-])cc([N+](=O)[O-])c1 | 156 | broth dilution | 24 h | EC80 | - | >500 µM
O=C(O)c1cc(O)c(O)c(O)c1 | ATCC 750 | broth dilution | - | MLC | - | 200 µg/mL
Clc1ccc(CSC(Cn2ccnc2)c2ccc(Cl)cc2Cl)cc1 | 19 isolates | - | - | MIC50 | - | 2 µg/mL
Oc1cc(Cl)cc2cc(Cl)cnc12 | ATCC 750 | - | 48 h | MIC | - | 3.1 µg/mL
C1=C(c2cnc3ccccc3c2)C2CCN1CC2 | ATCC 13803 | broth dilution | - | EC50 | - | >16 µg/mL
CN(C/C=C/C#CC(C)(C)C)Cc1cccc2ccccc12 | ATCC 750 | broth dilution | - | MIC100 | - | >100 µg/mL
Cc1c(OCC(F)(F)F)ccnc1CS(=O)c1nc2ccccc2[nH]1 | Clinical isolates | - | - | MIC | - | >128 µg/mL
CCOC(=O)c1ccc(C2=CN3CCC2CC3)cc1 | ATCC 13803 | broth dilution | - | EC50 | - | >16 µg/mL

For reference, 4 entries again:

structure	strain	read by	setting	measure	tested at	value
CC(C)CCCc1ccc2c(c1)C(=O)C(Cl)=C(Cl)C2=O	ATCC 200956	absorbance	-	MIC90	-	>11.3 µg/mL
C1=C(c2ccc(OCc3ccccc3)cc2)C2CCN1CC2	ATCC 13803	broth dilution	-	EC50	-	0.5 µg/mL
O=Cc1cccc(O)c1O	PYCC 3097	broth dilution / turbidity	-	EC50	-	0.06 µM
O=C(O)c1cc(O)c(O)c(O)c1	ATCC 750	broth dilution	-	MLC	-	200 µg/mL